For the assay, the target named is mature SARSCoV2 M^pro (Severe acute respiratory syndrome coronavirus 2, UniProt P0DTD1). The assay can be described thus: biochemical.

Bounds are passed on as bounds.

We go through 1 compound from patent US20230192660A1 (priority 2020, published 2023).

In the case of `CC(C)(C)CC(=O)N[C@H](C(=O)N1C[C@H]2[C@@H]([C@H]1C(=O)NC(C[C@@H]1CCNC1=O)C(=O)C(N)=O)C2(C)C)C(C)(C)C` (some centres unmarked) [ML1001], the 50% inhibitory concentration (IC50) was 0.02 µM (IC50 SARSCov2 Mpro, 20 nM SARSCoV2 Mpro, 30 min incubation) and less than 0.05 µM (IC50 against SARS-CoV-2 Mpro, Example 6).
